HIV-1 5' UTR: DMS reactivities by position

Values reported by Ye et al. 2022 (doi:10.1038/s41594-022-00746-2).

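Randomly mutated transcripts starting with one, two or three G (1G, 2G, 3G), capped or uncapped, were folded for 30 min at 37 °C. High salt was 300 mM KCl and 5 mM MgCl2, low salt 40 mM KCl and 0.1 mM MgCl2; monomer and dimer were parted on a native gel. Gel slices were treated with 170 mM dimethyl sulfate for 15 min at 37 °C and read by mutational profiling against an ethanol control.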

RNA: 5' end of the HIV-1 NL4-3 genome, made in vitro. Positions 1-437 read:
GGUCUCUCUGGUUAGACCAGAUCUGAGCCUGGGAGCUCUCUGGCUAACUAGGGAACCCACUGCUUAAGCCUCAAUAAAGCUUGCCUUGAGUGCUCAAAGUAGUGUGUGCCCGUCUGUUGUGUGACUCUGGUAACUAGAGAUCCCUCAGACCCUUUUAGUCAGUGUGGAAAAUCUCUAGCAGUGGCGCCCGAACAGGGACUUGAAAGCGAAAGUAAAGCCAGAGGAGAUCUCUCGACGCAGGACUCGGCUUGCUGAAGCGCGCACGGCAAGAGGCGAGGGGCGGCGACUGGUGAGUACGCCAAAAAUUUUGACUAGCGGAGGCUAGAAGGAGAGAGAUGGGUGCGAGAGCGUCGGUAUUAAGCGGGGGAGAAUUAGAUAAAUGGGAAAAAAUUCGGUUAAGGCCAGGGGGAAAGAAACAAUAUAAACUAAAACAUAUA

Scale: normalised reactivity, A and C only; low values point to paired or protected bases, higher values to unpaired ones. One numbering serves 1G, 2G and 3G. A position is written with its base.

{"position": "A347", "domain": "none", "1G uncapped low-salt dimer": 0.27, "2G capped low-salt dimer": 0.27, "3G uncapped high-salt monomer": 0.25}
{"position": "A220", "domain": "antiPAS", "1G uncapped low-salt dimer": 0.20, "2G capped low-salt dimer": 0.23, "3G uncapped high-salt monomer": 0.31}
{"position": "A303", "domain": "none", "1G uncapped low-salt dimer": 0.07, "2G capped low-salt dimer": 0.07, "3G uncapped high-salt monomer": 0.07}
{"position": "C243", "domain": "SL1", "1G uncapped low-salt dimer": 0.05, "2G capped low-salt dimer": 0.04, "3G uncapped high-salt monomer": 0.05}
{"position": "C362", "domain": "none", "1G uncapped low-salt dimer": 0.25, "2G capped low-salt dimer": 0.39, "3G uncapped high-salt monomer": 0.49}
{"position": "A55", "domain": "TAR", "1G uncapped low-salt dimer": 0.39, "2G capped low-salt dimer": 0.24, "3G uncapped high-salt monomer": 0.19}
{"position": "A97", "domain": "PolyA", "1G uncapped low-salt dimer": 0.29, "2G capped low-salt dimer": 0.32, "3G uncapped high-salt monomer": 0.72}
{"position": "C179", "domain": "PBS", "1G uncapped low-salt dimer": 0.68, "2G capped low-salt dimer": 0.81, "3G uncapped high-salt monomer": 0.94}
{"position": "A76", "domain": "PolyA", "1G uncapped low-salt dimer": 0.27, "2G capped low-salt dimer": 0.25, "3G uncapped high-salt monomer": 0.28}
{"position": "A147", "domain": "PBS", "1G uncapped low-salt dimer": 0.44, "2G capped low-salt dimer": 0.42, "3G uncapped high-salt monomer": 0.41}
{"position": "C114", "domain": "none", "1G uncapped low-salt dimer": 0.22, "2G capped low-salt dimer": 0.23, "3G uncapped high-salt monomer": 0.19}
{"position": "C297", "domain": "SL2", "1G uncapped low-salt dimer": 0.11, "2G capped low-salt dimer": 0.13, "3G uncapped high-salt monomer": 0.14}
{"position": "C352", "domain": "none", "1G uncapped low-salt dimer": 0.37, "2G capped low-salt dimer": 0.41, "3G uncapped high-salt monomer": 0.32}
{"position": "A425", "domain": "none", "1G uncapped low-salt dimer": 0.51, "2G capped low-salt dimer": 0.50, "3G uncapped high-salt monomer": 0.52}
{"position": "C63", "domain": "PolyA", "1G uncapped low-salt dimer": 0.03, "2G capped low-salt dimer": 0.12, "3G uncapped high-salt monomer": 0.61}
{"position": "A19", "domain": "TAR", "1G uncapped low-salt dimer": 0.03, "2G capped low-salt dimer": 0.03, "3G uncapped high-salt monomer": 0.03}
{"position": "A423", "domain": "none", "1G uncapped low-salt dimer": 0.45, "2G capped low-salt dimer": 0.42, "3G uncapped high-salt monomer": 0.42}
{"position": "A332", "domain": "none", "1G uncapped low-salt dimer": 0.52, "2G capped low-salt dimer": 0.49, "3G uncapped high-salt monomer": 0.61}
{"position": "A430", "domain": "none", "1G uncapped low-salt dimer": 0.57, "2G capped low-salt dimer": 0.53, "3G uncapped high-salt monomer": 0.55}
{"position": "C199", "domain": "PBS", "1G uncapped low-salt dimer": 0.51, "2G capped low-salt dimer": 0.45, "3G uncapped high-salt monomer": 0.45}
{"position": "A404", "domain": "none", "1G uncapped low-salt dimer": 0.23, "2G capped low-salt dimer": 0.27, "3G uncapped high-salt monomer": 0.18}
{"position": "A215", "domain": "PBS", "1G uncapped low-salt dimer": 0.70, "2G capped low-salt dimer": 0.62, "3G uncapped high-salt monomer": 0.56}
{"position": "A96", "domain": "PolyA", "1G uncapped low-salt dimer": 0.23, "2G capped low-salt dimer": 0.23, "3G uncapped high-salt monomer": 0.35}
{"position": "A314", "domain": "SL3", "1G uncapped low-salt dimer": 0.03, "2G capped low-salt dimer": 0.03, "3G uncapped high-salt monomer": 0.04}
{"position": "A302", "domain": "none", "1G uncapped low-salt dimer": 1.26, "2G capped low-salt dimer": 1.16, "3G uncapped high-salt monomer": 1.16}
{"position": "C58", "domain": "PolyA", "1G uncapped low-salt dimer": 0.07, "2G capped low-salt dimer": 0.56, "3G uncapped high-salt monomer": 0.03}
{"position": "C417", "domain": "none", "1G uncapped low-salt dimer": 0.80, "2G capped low-salt dimer": 0.80, "3G uncapped high-salt monomer": 0.87}
{"position": "C402", "domain": "none", "1G uncapped low-salt dimer": 0.04, "2G capped low-salt dimer": 0.04, "3G uncapped high-salt monomer": 0.03}
{"position": "A26", "domain": "TAR", "1G uncapped low-salt dimer": 0.35, "2G capped low-salt dimer": 0.13, "3G uncapped high-salt monomer": 0.09}
{"position": "C44", "domain": "TAR", "1G uncapped low-salt dimer": 0.03, "2G capped low-salt dimer": 0.03, "3G uncapped high-salt monomer": 0.03}
{"position": "A136", "domain": "PBS", "1G uncapped low-salt dimer": 0.08, "2G capped low-salt dimer": 0.10, "3G uncapped high-salt monomer": 0.10}
{"position": "A410", "domain": "none", "1G uncapped low-salt dimer": 0.36, "2G capped low-salt dimer": 0.42, "3G uncapped high-salt monomer": 0.46}
{"position": "C69", "domain": "PolyA", "1G uncapped low-salt dimer": 0.03, "2G capped low-salt dimer": 0.03, "3G uncapped high-salt monomer": 0.07}
{"position": "A268", "domain": "SL1", "1G uncapped low-salt dimer": 0.17, "2G capped low-salt dimer": 0.17, "3G uncapped high-salt monomer": 0.25}
{"position": "C151", "domain": "PBS", "1G uncapped low-salt dimer": 0.73, "2G capped low-salt dimer": 0.74, "3G uncapped high-salt monomer": 0.84}
{"position": "C218", "domain": "antiPAS", "1G uncapped low-salt dimer": 0.03, "2G capped low-salt dimer": 0.06, "3G uncapped high-salt monomer": 0.03}
{"position": "A418", "domain": "none", "1G uncapped low-salt dimer": 0.62, "2G capped low-salt dimer": 0.61, "3G uncapped high-salt monomer": 0.68}
{"position": "A419", "domain": "none", "1G uncapped low-salt dimer": 0.44, "2G capped low-salt dimer": 0.46, "3G uncapped high-salt monomer": 0.48}
{"position": "A133", "domain": "PBS", "1G uncapped low-salt dimer": 1.58, "2G capped low-salt dimer": 1.39, "3G uncapped high-salt monomer": 1.53}
{"position": "A214", "domain": "PBS", "1G uncapped low-salt dimer": 0.31, "2G capped low-salt dimer": 0.28, "3G uncapped high-salt monomer": 0.28}

A selection of 2 entries from above:

position,domain,1G uncapped low-salt dimer,2G capped low-salt dimer,3G uncapped high-salt monomer
A425,none,0.51,0.50,0.52
A147,PBS,0.44,0.42,0.41